Assay results taken from US11458198B2, “HPV epitopes targeted by T cells infiltrating cervical malignancies for use in vaccines” (Academisch Ziekenhuis Leiden H.O.D.N. LUMC, priority 2007, dated 2022).

Test system: HPV-specific CD4+ and CD8+ T cells
Test: HLA restriction and minimal epitope (blocking antibodies, partially HLA matched APC, IFNγ ELISPOT)
Type: cell-based, human
Details: tumor-infiltrating CD8+ T cells, discussion
Method: MHC class II blocking experiments were performed as reported before using murine monoclonal antibodies against HLA-DR (B8.11.2), HLA-DQ (SPV.L3) and HLA-DP (B7/21) (van der Burg et al. 1999). Peptide-pulsed APC were incubated with anti-MHC class II antibodies for 2 hours prior to the addition of T cells.
Enumeration of IFNγ producing T cells as measured by intracellular cytokine staining was performed as described earlier (de Jong et al. 2005). Briefly, APC were loaded with cognate peptide or recombinant protein and incubated with T cell cultures. After 1 hour of incubation 10 μg/ml Brefeldin A (Sigma) was added and incubated overnight. Hereafter the cells were fixed with 4% paraformaldehyde (Sigma) and permeabilized with 0.1% Saponin. The samples were subsequently stained with CD4-APC, CD8-PerCP and IFNγ-PE and analyzed by flow cytometry. The minimal peptide recognized by CD8 T cells was analysed by IFNγ ELISPOT (van der Burg et al. 2001, Welters et al. 2006, de Jong et al. 2002). CD8 T cell lines were seeded in triplicate wells at a density of 2×104 on a Multiscreen 96-well plate (Millipore, Etten-Leur, The Netherlands) coated with an IFNγ catch antibody (Mabtech. Nacha, Sweden). The microcultures were stimulated with 5 μg/ml 10-mer peptides and incubated overnight. […] The number of spots was analysed on a fully automated computer assisted video imaging system (BIOSYS). […]

| Substance | HLA restriction of CD8+ T cells recognizing the epitope |
| --- | --- |
| HPV16 E7.11-20: known HLA-A*0201-restricted CD8 epitope of HPV16 E7 (Evans et al. 1997, Oerke et al. 2005) [reference compound] | HLA-A*0201 |
| HPV16E6.52-61: amino acids 52-61 of HPV16 E6 protein (FAFRDLCIVY; Human papillomavirus type 16) | HLA-B57 |
